## Share of PSTVd loop 6 variants by leaf site

Values reported by Wu et al. 2024 (doi:10.1371/journal.ppat.1012142).

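Three N. benthamiana plants were inoculated with the whole mutant pool. Samples came from the inoculated region at 5 days, the leaf margin at 10 and upper systemic leaves at 12.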

PSTVd intermediate strain, loop 6: wild type UGACCGCGAG, pool pattern UNNNCGNNNG; upper and lower strand joined, each 5' to 3', the first 5 letters being the upper strand, closing pairs included.

Numbers give reads per thousand; 0 = not seen among the reads, higher = more abundant.
Each value is the mean of three plants.
"Pool" is the share in the plasmid pool used as inoculum, on the same scale.
The inoculated region was read from the minus strand, the other sites from the plus strand.
IR is the inoculated region, LM the leaf margin, Sys the systemic leaves.

- UAUGCGGAUG (pool 0.301) = IR 0.0655; LM 0.00773; Sys 0
- UACACGCUGG (pool 0.170) = IR 0.0898; LM 0; Sys 0
- UACGCGGCCG (pool 0.157) = IR 0.106; LM 0; Sys 0
- UAGACGCAGG (pool 0.275) = IR 0.106; LM 0.0169; Sys 0
- UGAGCGAAAG (pool 0.0915) = IR 0.100; LM 0; Sys 0
- UGGCCGGAAG (pool 0.157) = IR 0.120; LM 0.00773; Sys 0.0205
- UAACCGGACG (pool 0.301) = IR 0.607; LM 0.106; Sys 0
- UUAGCGAGCG (pool 0.327) = IR 0.0953; LM 0.00920; Sys 0
- UGCACGAGAG (pool 0.235) = IR 0.113; LM 0.0176; Sys 0
- UAGGCGAUGG (pool 0.431) = IR 0.0827; LM 0.0169; Sys 0.00684
- UUACCGCGCG (pool 0.196) = IR 0.638; LM 0.0838; Sys 0.0469
- UACACGGUCG (pool 0.288) = IR 0.749; LM 0.0606; Sys 0
- UCUACGUUUG (pool 0.405) = IR 0.0533; LM 0.0276; Sys 0
- UGGUCGCCUG (pool 0.261) = IR 0.0712; LM 0.00773; Sys 0
- UCGUCGGGUG (pool 0.170) = IR 0.0652; LM 0.00773; Sys 0
- UCUUCGUCCG (pool 0.222) = IR 0.120; LM 0.00773; Sys 0
- UUGCCGGAAG (pool 0.209) = IR 0.0774; LM 0.00920; Sys 0
- UUACCGCAAG (pool 0.0915) = IR 1.01; LM 0.0962; Sys 0.0857
- UUAUCGUUAG (pool 0.510) = IR 0.0831; LM 0.00841; Sys 0
- UAAGCGUCGG (pool 0.288) = IR 0.101; LM 0.00920; Sys 0.0202
- UGAGCGAACG (pool 0.170) = IR 0.143; LM 0; Sys 0
- UCAUCGCUAG (pool 0.0654) = IR 0.101; LM 0.00773; Sys 0
- UCGCCGUACG (pool 0.340) = IR 0.0478; LM 0.0155; Sys 0
- UUCACGGGGG (pool 0.131) = IR 0.132; LM 0; Sys 0
- UCGGCGGCGG (pool 0.288) = IR 0.101; LM 0.00773; Sys 0
- UCGCCGUGAG (pool 0.131) = IR 0.564; LM 0.0184; Sys 0
- UCGCCGGGGG (pool 0.105) = IR 0.0884; LM 0.00920; Sys 0
- UCUACGGUGG (pool 0.392) = IR 0.0894; LM 0.0169; Sys 0
- UGGCCGCGAG (pool 0.170) = IR 0.425; LM 0.715; Sys 0.767
- UACUCGCCUG (pool 0.144) = IR 0.125; LM 0.0161; Sys 0

The last 4 entries again:

* UCGCCGGGGG (pool 0.105): IR 0.0884; LM 0.00920; Sys 0
* UCUACGGUGG (pool 0.392): IR 0.0894; LM 0.0169; Sys 0
* UGGCCGCGAG (pool 0.170): IR 0.425; LM 0.715; Sys 0.767
* UACUCGCCUG (pool 0.144): IR 0.125; LM 0.0161; Sys 0

Sequences that differ at fixed positions probably stem from PCR or sequencing errors, and defective variants can be carried along by functional ones.
Samples held 36,220 to 57,551 reads, so the smallest values rest on one or two reads.
For reference, wild type rose from 20.7 per thousand in the pool to 195, 198, 203 (inoculated region), 629, 591, 734 (leaf margin) and 942, 870, 868 (systemic leaves).